Data on three molecules can be found in patent publication EP0414894A1 (priority 1989, dated 1990).

For test [1], the system named is pig ascarid eggs. In words: ovocidal activity on helminthic eggs. Particulars: concentration 2.0 % by mass.
Test [2] concerns Escherichia coli. Nature of the test: bactericidal activity, disinfection of lawn test objects / suspended culture. The format is cell-based. The settings on record: concentration 0.2 % by mass.
Test [3] concerns Staphylococcus aureus. The description is as above. Particulars: concentration 0.2 % by mass. The format is cell-based.

Turning to “tris-[D(-)-threo-3-para-nitrophenyl-2-dichloroacetamido-2-hydroxypropoxy] phosphazo-L(+)-threo-1-para-nitroplenyl-1-hydroxy 3-chloroisopropyl”, in test [1], the “Death of ascaridal eggs, % after 24 hours” value stood at 100.0% and the “Death of ascaridal eggs, % after 48 hours” value was found to be 100.0%.
Regarding `O=[N+]([O-])c1ccc(C(O)C(CO)N=P(Cl)(Cl)Oc2ccccc2)cc1` (stereo not drawn), the “Death of micro-organisms, % E.coli” value in test [2] turned out to be 100.0%. Also, the “Death of micro-organisms, % S.aureus” value in test [3] is reported as 95.0%.
Consider `O=[N+]([O-])c1ccc(C(Cl)C(CCl)N=P(Cl)(Cl)Nc2ccccc2)cc1` (stereo not drawn), for which, in test [1], the “Death of ascaridal eggs, % after 24 hours” value is reported as 100.0% and the “Death of ascaridal eggs, % after 48 hours” value amounted to 100.0%.
